Test results: paper PMC7694997

Test system: CSCCC(=O)C(=O)O
Test: purified protein
Settings: aminotransferase domain, 5 mM phenylalanine, 1-40 mM KMTB, 50 nM enzyme, 100 mM ammonium bicarbonate pH 7.4

Substance: MpMetRS (M568A, full length) (Malacoplasma penetrans HF-2; M568A)
- Km: 4.1 ± 0.3 mM
